Target: synthesized human Aβ42 peptide (human) (UniProt P05067)

Substance: mouse PrP^A116V (transgene of TgGSS and TgAD/GSS mice) (from UniProt P04925 23-230)
- PrP bound to 70 pmol coated Aβ42: 4.1 pmol
- binding relative to mouse PrP^C, corrected for PrP expression: 10.8%
